# Results as given in EP4014973B1, “INHALED LIQUID FOR THE TREATMENT OF RESPIRATORY INFECTIONS IN HUMANS CAUSED BY PATHOGENS RESISTANT TO ANTIBIOTICS” (Conick Biotech LLC, priority 2020, dated 2022).
# Test system: humans
# Assay: Clinical pilot study of side effects after inhalation
# Details: 80 humans; blood samples before the test, on the 4th and 8th day
smiles,measurement,value
"C=CCc1ccc(O)c(OC)c1.CCN(CC)CC(=O)Nc1c(C)cccc1C [Novel Compound, N-[N'-(carboxymethylenyl-2,6-dimethyl-aniline)-N,N-diethylammonium]-[2'-methoxy-4'-(2'-propenyl)]-phenolate.]",liver function biochemical analysis from blood samples,did not have any negative clinical or acute effects on the hepatic function
